Data as given in PubChem BioAssay AID1259414 (Drosophila RNAi Screening Center, 2018)

Screen: 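Host factors increasing or decreasing Wolbachia levels in cultured fly cells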 (primary screen)
Cell system: Drosophila JW18 cells infected with Wolbachia
Knock-down reagent: long dsRNA against Drosophila genes, 0.25 µg dsRNA per well of a 384-well plate
Duration: 5 days
Challenge: cells persistently infected with Wolbachia before knock-down; no added drug
Measured: 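Imaged fluorescence in situ signal for Wolbachia 23S rRNA per DAPI-counted host cell, given as a robust z-score within each plate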
Direction: Wolbachia per cell robust z: higher = more Wolbachia per host cell than the plate typical
Rule for the call: 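Active if absolute robust z reaches 1.5 in two or more of three replicates, leaving out multi- or no-target dsRNAs, genes unexpressed in JW18 and A1 wells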
The screen tested about 24,000 reagents; this is a random part of those that have a named target and a result. In the full data, about 1,210 (5%) got an active call. 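Inactive calls also include excluded dsRNAs with several or no targets, genes unexpressed in JW18, and well A1, regardless of score.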

The first 2 records, to show the layout:
no.	predicted target	DRSC id	Wolbachia per cell robust z, rep 1	Wolbachia per cell robust z, rep 2	Wolbachia per cell robust z, rep 3	call
1	CG2736	DRSC04314	0.607	-7.57	-0.242	inactive
2	CG8180	DRSC07092	0.88	-1.79	0.303	inactive

Main list, from the start:
no.	predicted target	DRSC id	Wolbachia per cell robust z, rep 1	Wolbachia per cell robust z, rep 2	Wolbachia per cell robust z, rep 3	call
1	CG2736	DRSC04314	0.607	-7.57	-0.242	inactive
2	CG8180	DRSC07092	0.88	-1.79	0.303	inactive
3	CG8180	DRSC07093	-3.62	-0.118	-1.74	inactive
4	CG33769	DRSC11716	-0.334	0.415	0.323	inactive
5	tfc	DRSC07953	0.555	0.784	1.49	inactive
6	tfc	DRSC07954	2.02	0.891	1.01	inactive
7	tfc	DRSC08626	0.614	-0.487	0.728	inactive
8	tfc	DRSC21704	0.0574	-1.27	0.0474	inactive
9	tfc	DRSC23750	1.11	1.02	1.17	inactive
10	CG31407	DRSC12761	0.63	-0.508	-2.18	inactive
11	CG13375	DRSC18621	-1.26	0.993	0.794	inactive
12	Sas-6	DRSC15061	-0.065	-4.32	0.177	inactive
13	Src42A	DRSC04865	0.152	-1.35	0.786	inactive
14	Src42A	DRSC04915	1.53	1.62	2.43	inactive
15	Src42A	DRSC26266	0.00427	-0.863	0.445	inactive
16	Src42A	DRSC36641	0.374	-1.59	-4.14	inactive
17	Scamp	DRSC20286	0.933	0.437	0.0934	inactive
18	Scamp	DRSC29752	-8.9	0.424	-2.99	active
19	Pvf2	DRSC00968	1.47	1.35	0.119	inactive
20	Pvf2	DRSC02283	0.00593	4.45	1.88	active
21	CG13344	DRSC06378	-1.24	-0.138	-0.545	inactive
22	CG10338	DRSC02039	-2.77	-0.801	-0.377	inactive
23	CG8788	DRSC07267	-0.97	-1.6	-0.11	inactive
24	Ugt316A1	DRSC10376	-0.502	0.163	0.566	inactive
25	sgll	DRSC15442	0.0556	-0.986	0.496	inactive
26	CG11756	DRSC19424	-2.83	-0.863	0.384	inactive
27	CG11756	DRSC30076	-0.0171	-0.534	0.0211	inactive
28	Pxt	DRSC17040	1.03	0.237	0.913	inactive
29	Sas-4	DRSC12505	0.516	-0.399	-2.43	inactive
30	cuff	DRSC06315	-0.412	-0.1	-2.57	inactive
31	ECSIT	DRSC12348	-0.799	-0.583	0.47	inactive
32	CG34367	DRSC02238	0.00387	0.287	0.98	inactive
33	CG34367	DRSC02850	0.503	-3.84	-0.0579	inactive
34	CG34367	DRSC28054	0.791	0.92	1.82	inactive
35	CG32373	DRSC08895	-3.61	-0.193	0.438	inactive
36	Appl	DRSC17728	-0.722	-1.05	-0.297	inactive
37	Appl	DRSC27476	0.253	-0.146	-0.303	inactive
38	CG10357	DRSC08155	-0.473	0.618	-4.55	inactive
39	Sec8	DRSC12300	-0.169	0.641	1.04	inactive
40	CG43693	DRSC09086	0.889	0.497	0.364	inactive
41	CG43693	DRSC10625	0.452	0.44	0.37	inactive
42	CG43693	DRSC38675	0.729	1.39	0.833	inactive
43	CG43693	DRSC41478	0.161	-1.83	-0.032	inactive
44	Fem-1	DRSC07322	0.241	-1.5	-0.104	inactive
45	Fem-1	DRSC27014	-0.211	0.2	-0.755	inactive
46	Rat1	DRSC02044	-0.18	0.779	1.16	inactive
47	Sgs8	DRSC11282	-0.926	-0.451	-4.62	inactive
48	CG30001	DRSC05191	-0.351	-0.0322	0.0573	inactive
49	CG17141	DRSC15178	-4.79	0.829	-4.38	active
50	Ent3	DRSC09822	-0.721	0.85	-0.707	inactive
51	Ent3	DRSC29706	0.437	1.33	-0.327	inactive
52	CG30283	DRSC04071	-2.65	-0.112	-6.09	active
53	CG30283	DRSC24411	-0.425	-1.04	-1.32	inactive
54	CG30114	DRSC05707	-0.483	-0.339	-3.79	inactive
55	CG30114	DRSC25433	-1.19	-1.11	-0.0944	inactive
56	dnt	DRSC03522	-0.611	-0.748	0.978	inactive
57	dnt	DRSC25886	0.4	-0.167	-0.0976	inactive
58	CG10352	DRSC19353	-1.14	-0.619	-0.434	inactive
59	CG10352	DRSC41392	-1.92	0.347	-1.95	inactive
60	dom	DRSC04558	0.875	-0.446	-4.24	inactive
61	dom	DRSC04559	1.61	1.33	1.23	inactive
62	dom	DRSC29669	1.12	1.52	1.48	inactive
63	CG4607	DRSC18375	0.316	-6.47	-0.996	inactive
64	CG4607	DRSC40692	0.181	-2.51	-1.5	inactive
65	CG30178	DRSC21911	-1.41	-0.243	0.27	inactive
66	CG7203	DRSC03026	0.403	1.58	1.04	inactive
67	CG7203	DRSC25657	-0.663	-0.611	-0.344	inactive
68	CG13700	DRSC10049	-2.26	-0.419	0.754	inactive
69	CG13700	DRSC29871	0.301	0.18	-0.619	inactive
